This is an account of results in patent publication EP1328811B1, “HCV MOSAIC ANTIGEN COMPOSITION” (MedMira Inc., priority 2000, dated 2005).

The data set concerns anti-HCV antibodies. Description: Determination of optimal peptide to carrier mass ratio by immunofiltration dotting assay (Example 7). Type of data set: binding, human. The note with it: ratio giving an intensity between 2+ and 1+ with pooled HCV positive serum diluted 1 in 5; total of about 25 to 30 peptides per carrier.
As to “GPRLGVRATRKTSERSQP [MDL-4, HCV core region antigenic peptide]”, the “Peptide/HSA Mass Ratio (optimal)” value turned out to be 0.5.

As to “MSTNPKPQRKTKRNTNRR [MDL-1, HCV core region antigenic peptide]”, the “Peptide/HSA Mass Ratio (optimal)” value came out at 0.5.

Take PKARQPEGRAWAQPG [MDL-6]: the “Peptide/HSA Mass Ratio (optimal)” value worked out at 0.25.

Consider “ATRKTSERSQPRGRRQPI [MDL-5, HCV core region antigenic peptide]”, for which the “Peptide/HSA Mass Ratio (optimal)” value is 0.125.

In the case of “GQIVGGVYLLPRRGP [MDL-3, HCV core region antigenic peptide]”, the “Peptide/HSA Mass Ratio (optimal)” value was determined as 0.5.

For the sequence “KTKRNTNRRPQDVKF [MDL-2, HCV core region antigenic peptide]”, the “Peptide/HSA Mass Ratio (optimal)” value worked out at 0.125.
